Anti-infective test results gathered from many reports (values: NIAID ChemDB through PubChem).

All rows: whole-cell or culture tests; species: HIV-1; read by: syncytia; read-out: fold resistance

Fold resistance: result on the changed form divided by that on wild type.

{"smiles": "CC(C)Nc1cccnc1N1CCN(C(=O)c2cc3ccccc3[nH]2)CC1", "changes": "RT-V106A", "strain": "NEV(RT-V106A)", "cells": "CEM", "result": "22"}
{"smiles": "C#CCN1C(=O)N(Cc2ccccc2)S(=O)(=O)c2cscc21", "changes": "RT-Y181C", "strain": "IIIB", "cells": "CEM", "result": "7.08"}
{"smiles": "CCOCn1c(Cc2cc(C)cc(C)c2)c(CC)c(=O)[nH]c1=O", "changes": "RT-C181I", "strain": "IIIB", "cells": "CEM", "result": "38.9"}
{"smiles": "CCn1c(=O)c(C)cn([C@@H]2O[C@H](CO[Si](C)(C)C(C)(C)C)C3(OS(=O)(=O)C=C3N)[C@H]2O[Si](C)(C)C(C)(C)C)c1=O", "changes": "RT-K103N", "strain": "IIIB TIBO R82913 STR-2 (RT K103N)", "cells": "CEM", "result": "10.7"}
{"smiles": "CCc1c(Sc2ccccc2)n(COCc2ccccc2)c(=O)[nH]c1=O", "changes": "RT-C181I", "strain": "IIIB", "cells": "CEM", "result": "31.8"}
{"smiles": "CCOCn1c(Cc2ccccc2)c(CC)c(=O)[nH]c1=O", "changes": "RT-Y188H", "strain": "IIIB HEPT-resistant (RT Y188H)", "cells": "CEM", "result": "1825"}
{"smiles": "Cc1cn([C@@H]2O[C@H](CO[Si](C)(C)C(C)(C)C)C3(OS(=O)(=O)C=C3N)[C@H]2O[Si](C)(C)C(C)(C)C)c(=O)n(C)c1=O", "changes": "RT-Y181C", "strain": "Pyr(RT-Y181C)", "cells": "CEM", "result": "82.5"}
{"smiles": "O=C1N(Cc2ccccc2)c2cscc2S(=O)(=O)N1Cc1ccccc1", "changes": "RT-Y181C", "strain": "IIIB", "cells": "CEM", "result": "≥5.56"}
{"smiles": "Nc1nc2c(ncn2[C@H]2CC[C@@H](CO)O2)c(=O)[nH]1", "changes": "RT-E138K", "strain": "TSAO(RT-E138K)", "cells": "CEM", "result": "1.25"}
{"smiles": "N#CCN1C(=O)N(Cc2ccccc2)S(=O)(=O)c2cscc21", "changes": "RT-E138K", "strain": "IIIB", "cells": "CEM", "result": "6"}
{"smiles": "Cc1cn([C@@H]2O[C@H](CO[Si](C)(C)C(C)(C)C)[C@@]3(OS(=O)(=O)C=C3N)[C@H]2O[Si](C)(C)C(C)(C)C)c(=O)[nH]c1=O", "changes": "RT-Y181C", "strain": "IIIB", "cells": "CEM", "result": "60"}
{"smiles": "CC(C)=CCN1Cc2cc(Cl)cc3[nH]c(=S)n(c23)C[C@@H]1C", "changes": "RT-L100I E138K", "strain": "IIIB TIBO R82913 STR-B02 (RT L100I E138K)", "cells": "CEM", "result": "250"}
{"smiles": "CCN1C(=O)N(Cc2ccccc2)S(=O)(=O)c2cscc21", "changes": "RT-E138K", "strain": "IIIB", "cells": "CEM", "result": ">207"}
{"smiles": "N#CCN1C(=O)N(Cc2ccccc2)S(=O)(=O)c2cscc21", "changes": "RT-K103N", "cells": "CEM", "result": ">250"}
{"smiles": "Nc1ncnc2c1ncn2CC(CF)OCP(=O)(O)O", "changes": "RT-E138K", "strain": "IIIB TSAO-T(RT-E138K)", "cells": "CEM", "result": "1.33"}
{"smiles": "O=C1N(Cc2ccccc2)c2cscc2S(=O)(=O)N1Cc1ccccc1", "changes": "RT-D67N K70R T215F K219Q", "strain": "ADP/141", "cells": "MT-4", "result": "0.571"}
{"smiles": "CCc1cc(NCc2nc3c(Cl)ccc(Cl)c3o2)c(=O)[nH]c1C", "changes": "RT-Y181C", "strain": "IIIB", "cells": "CEM", "result": "500"}
{"smiles": "Cc1cn([C@H]2C[C@H](N=[N+]=[N-])[C@@H](CO)O2)c(=O)[nH]c1=O", "changes": "RT-L100I E138K", "strain": "IIIB TIBO R82913 STR-B02 (RT L100I E138K)", "cells": "CEM", "result": "11.7"}
{"smiles": "CCN1C(=O)N(Cc2cccc(Cl)c2)S(=O)(=O)c2cscc21", "changes": "RT-Y188H", "cells": "CEM", "result": "10.2"}
{"smiles": "Cc1cn([C@@H]2O[C@H](CO[Si](C)(C)C(C)(C)C)[C@@]3(OS(=O)(=O)C=C3N)[C@H]2O[Si](C)(C)C(C)(C)C)c(=O)[nH]c1=O", "changes": "RT-K103N", "strain": "IIIB TIBO R82913 STR-2 (RT K103N)", "cells": "CEM", "result": "6.67"}
{"smiles": "CCNc1cccnc1N1CCN(C(=O)c2cc3cc(OC)ccc3[nH]2)CC1", "changes": "RT-K103N", "strain": "IIIB TIBO R82913-resistant (RT K103N)", "cells": "CEM", "result": "85"}
{"smiles": "CN1C(=O)N(Cc2ccccc2)S(=O)(=O)c2cscc21", "changes": "RT-E138K", "cells": "CEM", "result": ">141"}
{"smiles": "C=C(C)OC(=O)N1c2cc(Cl)ccc2NC(=S)C1(C)C", "changes": "RT-Y181I", "strain": "Pyr/BHAP(RT-Y181I)", "cells": "CEM", "result": "379"}
{"smiles": "CCOCn1c(Sc2ccccc2)c(CC)c(=O)[nH]c1=O", "changes": "RT-Y181C", "strain": "IIIB PYR(RT-Y181C)", "cells": "CEM", "result": "52"}
{"smiles": "O=c1[nH]cnc2c1ncn2[C@H]1CC[C@@H](CO)O1", "changes": "RT-Y181C", "strain": "IIIB-TSAO-m3T(10)(RT-Y181C)", "cells": "CEM", "result": "1.1"}
{"smiles": "CC(C)=CCN1Cc2cc(Cl)cc3[nH]c(=S)n(c23)C[C@@H]1C", "changes": "RT-C181I", "strain": "IIIB", "cells": "CEM", "result": "≥250"}
{"smiles": "Cc1cn([C@H]2C[C@H](N=[N+]=[N-])[C@@H](CO)O2)c(=O)[nH]c1=O", "changes": "RT-L100I", "strain": "IIIB-TIBO(0.5)(RT-L100I)", "cells": "CEM", "result": "1.33"}
{"smiles": "Nc1ccn([C@H]2CC[C@@H](CO)O2)c(=O)n1", "changes": "RT-L100I Y188H", "strain": "IIIB TIBO R82913 STR-B22 (RT L100I Y188H)", "cells": "CEM", "result": "0.28"}
{"smiles": "CCc1cc(NCc2nc3c(Cl)ccc(Cl)c3o2)c(=O)[nH]c1C", "changes": "RT-V106A", "strain": "IIIB NEV(RT-V106A)", "cells": "CEM", "result": "11.4"}
{"smiles": "CC(C)=CCN1Cc2cc(Cl)cc3[nH]c(=S)n(c23)C[C@@H]1C", "changes": "RT-Y181C", "strain": "IIIB-TSAO-m3T(10)(RT-Y181C)", "cells": "CEM", "result": "42.9"}
{"smiles": "Cc1c(Sc2ccccc2)n(COCCO)c(=O)[nH]c1=O", "changes": "RT-L100I", "strain": "IIIB BHAP(RT-L100I)", "cells": "CEM", "result": "5.33"}
{"smiles": "CCNc1cccnc1N1CCN(C(=O)c2cc3cc(OC)ccc3[nH]2)CC1", "changes": "RT-Y181C", "strain": "IIIB-Nevirapine(0.1)(RT-Y181C)", "cells": "CEM", "result": "3.35"}

The first 3 rows once more:

smiles	changes	strain	cells	result
CC(C)Nc1cccnc1N1CCN(C(=O)c2cc3ccccc3[nH]2)CC1	RT-V106A	NEV(RT-V106A)	CEM	22
C#CCN1C(=O)N(Cc2ccccc2)S(=O)(=O)c2cscc21	RT-Y181C	IIIB	CEM	7.08
CCOCn1c(Cc2cc(C)cc(C)c2)c(CC)c(=O)[nH]c1=O	RT-C181I	IIIB	CEM	38.9

Neighbouring rows are from separate reports.